PMC10030653, “ClpC2 protects mycobacteria against a natural antibiotic targeting ClpC1-dependent protein degradation” (Communications Biology, 2023)
The exact form of at least one protein or probe is not confirmed. At least one verdict was read from the data and is not stated in words by the source.

Protein sequences, listed by entry. Tags and fused reporters are not part of them. Lines headed by an entry give the natural chain unless they say otherwise; changes in a name come on top.
UniProt P9WPC9, whole entry: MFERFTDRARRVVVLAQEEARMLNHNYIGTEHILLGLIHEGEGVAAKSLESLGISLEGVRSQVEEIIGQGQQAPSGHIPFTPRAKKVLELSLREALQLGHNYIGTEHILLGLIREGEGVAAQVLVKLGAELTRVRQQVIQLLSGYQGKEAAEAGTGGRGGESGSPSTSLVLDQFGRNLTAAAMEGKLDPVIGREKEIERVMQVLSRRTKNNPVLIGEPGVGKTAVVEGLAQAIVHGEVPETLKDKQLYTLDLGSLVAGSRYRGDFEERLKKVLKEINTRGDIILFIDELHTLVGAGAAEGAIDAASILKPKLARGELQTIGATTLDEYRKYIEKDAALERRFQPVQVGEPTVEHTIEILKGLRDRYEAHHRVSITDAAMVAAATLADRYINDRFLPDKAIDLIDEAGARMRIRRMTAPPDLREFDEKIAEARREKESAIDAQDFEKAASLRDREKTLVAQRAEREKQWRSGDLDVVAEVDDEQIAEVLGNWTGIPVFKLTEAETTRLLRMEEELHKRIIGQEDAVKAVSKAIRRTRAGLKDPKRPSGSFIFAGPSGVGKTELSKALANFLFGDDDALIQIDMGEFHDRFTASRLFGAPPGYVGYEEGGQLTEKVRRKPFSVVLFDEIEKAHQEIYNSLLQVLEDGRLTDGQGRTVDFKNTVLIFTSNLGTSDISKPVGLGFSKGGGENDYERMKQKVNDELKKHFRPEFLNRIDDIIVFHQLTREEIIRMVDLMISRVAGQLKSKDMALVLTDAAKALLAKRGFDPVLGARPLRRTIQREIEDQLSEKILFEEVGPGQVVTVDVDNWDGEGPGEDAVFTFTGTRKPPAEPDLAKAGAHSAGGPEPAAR
UniProt P9WPC7: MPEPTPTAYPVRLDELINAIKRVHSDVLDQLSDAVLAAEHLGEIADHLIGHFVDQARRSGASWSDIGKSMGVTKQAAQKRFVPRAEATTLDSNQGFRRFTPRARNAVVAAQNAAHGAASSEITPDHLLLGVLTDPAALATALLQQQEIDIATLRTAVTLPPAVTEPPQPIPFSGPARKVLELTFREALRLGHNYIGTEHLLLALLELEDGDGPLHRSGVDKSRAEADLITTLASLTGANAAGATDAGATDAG

Legend:
[1] = target: ClpC1 (Mycobacterium tuberculosis) (UniProt P9WPC9); experiment: competition with a labelled probe; settings: 10 nM labelled operator DNA; EMSA: 5 mM HEPES-KOH pH 7.5, 30 mM KCl, 1% glycerol, 10 mM MgCl2, room temperature 20 min, 12% polyacrylamide gel; recombinant protein; residues 1-848; protein details: untagged
[2] = target: ClpC2 WT (Mycobacterium tuberculosis) (UniProt P9WPC7); experiment: competition with a labelled probe; settings: EMSA: 5 mM HEPES-KOH pH 7.5, 30 mM KCl, 1% glycerol, 10 mM MgCl2, room temperature 20 min, 12% polyacrylamide gel; recombinant protein; residues 1-252; protein details: untagged

Row | Sequence | binding result [1] | binding result [2]
1 | GTTGCTTCAGCAGCAGGAGATCGACATCGCAACCCTGCGTA (double strand) [nonspecific_EMSA_41bp] | binds | –
2 | ACAATGCATAACGTCAACCTACTGTTGACGTCATGCCGGAG (double strand) [specific_EMSA_41bp] | binds | –
3 | AACGTCAACCTACTGTTGACGTC (double strand) [specific_EMSA_23bp] | – | binds
